{"source": "patent US20160053242A1", "about": "“THERMOSTABLE NUCLEASE” (priority 2013, published 2016)", "molecules": {"B1": {"name": "Nucyep1: recombinant Nucyep without peptide signal and stop codon, with C-terminal 6×His-tag; SEQ ID NO. 8 (protein)", "chain": "MSAPKTILSAPTVTEQNLPAAAIDNCLVGCPTGGSDQTVIRDVYTLNNNSHTKFANWVAYKVTKSSQASNHPRKWAQDPDLPDSDTLAPADYTGANQKLAVDRGHQAPLSLLAGNEDSQALNYLSNITPQKAALNQGAWVRLEDQERNLANRPDVTAVYSVTGPLFERHIATLPAKPTVEIPSGYWKIIFIGTSPDKGQYAAFLMDQNTAKSANFCDYQVNVDTIEAKTNPQLTIWSNLPADVAQIIKSQKGTLAQTIGCDLEHHHHHH", "modifications": "C-terminal 6xHis tag; Yersinia enterocolitica sub. paleartica"}, "B2": {"name": "Nucyep2: recombinant Nucyep with peptide signal, without stop codon, with C-terminal 6×His-tag; SEQ ID NO. 10 (protein)", "chain": "MAKFNLIKLLPVLLLTACTTTDHSSAPKTILSAPTVTEQNLPAAAIDNCLVGCPTGGSDQTVIRDVYTLNNNSHTKFANWVAYKVTKSSQASNHPRKWAQDPDLPDSDTLAPADYTGANQKLAVDRGHQAPLSLLAGNEDSQALNYLSNITPQKAALNQGAWVRLEDQERNLANRPDVTAVYSVTGPLFERHIATLPAKPTVEIPSGYWKIIFIGTSPDKGQYAAFLMDQNTAKSANFCDYQVNVDTIEAKTNPQLTIWSNLPADVAQIIKSQKGTLAQTIGCDGSNSSSVDKLAAALEHHHHHH", "modifications": "C-terminal 6xHis tag; Yersinia enterocolitica sub. paleartica"}}, "key": {"calf thymus dsDNA [1]": {"test_system": "calf thymus dsDNA", "experiment": "Assay of nuclease activity, DNA degradation level on agarose gel"}, "RNA": {"test_system": "RNA", "experiment": "Assay of nuclease activity, substrate specificity: RNA"}, "calf thymus dsDNA [2]": {"test_system": "calf thymus dsDNA", "experiment": "Degradation of calf thymus dsDNA by recombinant E. coli expressing Nucyep1 or Nucyep2 (FIG. 4b)", "conditions": "E. coli BL21star (DE3)plysS; for Nuclease activity in induced recombinant bacteria: IPTG induced; for Nuclease activity in non-induced recombinant bacteria: without IPTG induction"}, "calf thymus ssDNA": {"test_system": "calf thymus ssDNA", "experiment": "Assay of nuclease activity, substrate specificity: ssDNA", "conditions": "20 mM Mg2+, Mn2+, Co2+ individually"}, "[3]": {"test_system": "plasmid DNA pET-24a(+) (closed circular double stranded)", "experiment": "Assay of nuclease activity, substrate specificity: plasmid DNA"}, "[4]": {"conditions": "20 mM Mg2+, Mn2+, Co2+ individually"}, "[5]": {"conditions": "digestion of calf thymus dsDNA at 37° C."}}, "data": [{"molecule": "B1", "values": [{"measurement": "Best activator metal ion overall", "setting": "calf thymus dsDNA [1]", "value": "Mn^2+"}, {"measurement": "Nuclease activity at 0° C.", "setting": "calf thymus dsDNA [1]; 0° C.", "value": "works"}, {"measurement": "Effect of 2 mM CuSO4 on nuclease activity", "setting": "calf thymus dsDNA [1]; 2 mM CuSO4", "value": "completely inhibited"}, {"measurement": "Effect of 2 mM ZnCl2 on nuclease activity", "setting": "calf thymus dsDNA [1]; 2 mM ZnCl2", "value": "completely inhibited"}, {"measurement": "Effect of 2 mM and 10 mM NaCl, KCl, CoCl2, NiSO4 on nuclease activity", "setting": "calf thymus dsDNA [1]; 2 mM and 10 mM NaCl, KCl, CoCl2, NiSO4", "value": "did not have obvious effects"}, {"measurement": "Effect of 10 mM BaCl2 on nuclease activity", "setting": "calf thymus dsDNA [1]; 10 mM BaCl2", "value": "partly inhibited"}, {"measurement": "Effect of 10 mM CaCl2 on nuclease activity", "setting": "calf thymus dsDNA [1]; 10 mM CaCl2", "value": "completely inhibited"}, {"measurement": "Nuclease activity on dsDNA with metal ion", "setting": "calf thymus dsDNA [1]; [4]", "value": "high nuclease activity"}, {"measurement": "Effect of 0.1% SDS on nuclease activity", "setting": "calf thymus dsDNA [1]; 0.1% SDS", "value": "completely inhibit"}, {"measurement": "Effect of 100 mM NaCl, KCl, NiSO4 on nuclease activity", "setting": "calf thymus dsDNA [1]; 100 mM NaCl, KCl, NiSO4 (data not shown)", "value": "no effect"}, {"measurement": "Effect of 1 M urea on nuclease activity", "setting": "calf thymus dsDNA [1]; 1 M urea", "value": "had an effect"}, {"measurement": "Effect of 50% glycerol on nuclease activity", "setting": "calf thymus dsDNA [1]; 50% glycerol", "value": "small inhibition"}, {"measurement": "Effect of BSA on nuclease activity", "setting": "calf thymus dsDNA [1]; BSA 0.1 to 1 mg/ml", "value": "greatly increased the nuclease activity"}, {"measurement": "Effect of Co2+ at 20 mM or 50 mM on nuclease activity", "setting": "calf thymus dsDNA [1]; Co2+ 20 mM or 50 mM", "value": "greatly increased the nuclease activity"}, {"measurement": "Effect of 2 mM EDTA on nuclease activity", "setting": "calf thymus dsDNA [1]; EDTA 2 mM", "value": "did not affect"}, {"measurement": "Effect of 100 mM EDTA on nuclease activity", "setting": "calf thymus dsDNA [1]; EDTA 100 mM", "value": "totally inhibited"}, {"measurement": "Effect of 5 to 10 mM EDTA on nuclease activity", "setting": "calf thymus dsDNA [1]; EDTA 5 to 10 mM", "value": "slight inhibition effect"}, {"measurement": "pH range in which the enzyme is active", "setting": "calf thymus dsDNA [1]; FIG. 7a", "value": "3.6-9.9"}, {"measurement": "Optimal Mg2+ concentration to activate the nuclease activity", "setting": "calf thymus dsDNA [1]; Mg2+", "value": 10, "unit": "mM"}, {"measurement": "Effect of 50 mM Mg2+ on enzyme activity", "setting": "calf thymus dsDNA [1]; Mg2+ 50 mM", "value": "the same as with no metal ion"}, {"measurement": "Effect of 100 mM Mg2+ on nuclease activity", "setting": "calf thymus dsDNA [1]; Mg2+ 100 mM", "value": "notably diminished"}, {"measurement": "Optimal Mn2+ concentration", "setting": "calf thymus dsDNA [1]; Mn2+", "value": "10 to 20", "unit": "mM"}, {"measurement": "Effect of 50 mM Mn2+ on nuclease activity", "setting": "calf thymus dsDNA [1]; Mn2+ 50 mM", "value": "could activate the nuclease activity"}, {"measurement": "Effect of 100 mM Mn2+ on nuclease activity", "setting": "calf thymus dsDNA [1]; Mn2+ 100 mM", "value": "did inhibit"}, {"measurement": "Effect of dNTPs on nuclease activity", "setting": "calf thymus dsDNA [1]; dNTPs 0.05 to 1 mM", "value": "little inhibition"}, {"measurement": "Activity left after heating at 80° C. for 60 minutes (1 h)", "setting": "calf thymus dsDNA [1]; [5]", "value": "more than 5%"}, {"measurement": "Activity left after heating at 100° C. for 20 minutes", "setting": "calf thymus dsDNA [1]; [5]", "value": "more than 5%"}, {"measurement": "Optimum temperature", "setting": "calf thymus dsDNA [1]; examined within 0 to 100° C.", "value": "35-40 °C"}, {"measurement": "Effect of glycerol 5%-30% on nuclease activity", "setting": "calf thymus dsDNA [1]; glycerol 5%-30%", "value": "no effect"}, {"measurement": "Nuclease activity after heating at 80° C. for 1 h", "setting": "calf thymus dsDNA [1]; in words", "value": "active"}, {"measurement": "Nuclease activity after heating at 100° C. for 20 min", "setting": "calf thymus dsDNA [1]; in words", "value": "active"}, {"measurement": "Best activator metal ion at 2 mM", "setting": "calf thymus dsDNA [1]; metal ion 2 mM", "value": "Mg^2+"}, {"measurement": "Best activator metal ions at 10 mM", "setting": "calf thymus dsDNA [1]; metal ion 10 mM", "value": "Mg^2+ and Mn^2+"}, {"measurement": "Activity retained at pH 7.24", "setting": "calf thymus dsDNA [1]; pH 7.24", "value": "greater than 75%"}, {"measurement": "Nuclease activity at urea concentration lower than 8 M", "setting": "calf thymus dsDNA [1]; urea lower than 8 M", "value": "still had some nuclease activity"}, {"measurement": "Nuclease activity on RNA with metal ion", "setting": "RNA; [4]", "value": "high nuclease activity"}, {"measurement": "Nuclease activity on RNA without addition of metal ions", "setting": "RNA; no metal ion added", "value": "obligate requirement of divalent Mg^2+, Mn^2+, Co^2+"}, {"measurement": "Nuclease activity in induced recombinant bacteria", "setting": "calf thymus dsDNA [2]", "value": "nuclease activity detected"}, {"measurement": "Nuclease activity in non-induced recombinant bacteria", "setting": "calf thymus dsDNA [2]", "value": "weak nuclease activity"}, {"measurement": "Nuclease activity on ssDNA with metal ion", "setting": "calf thymus ssDNA", "value": "high nuclease activity"}, {"measurement": "Nuclease activity on plasmid DNA with metal ion", "setting": "[3]; [4]", "value": "high nuclease activity"}, {"measurement": "Nuclease activity on plasmid (circular ds) DNA without addition of metal ions", "setting": "[3]; no metal ion added", "value": "obligate requirement of divalent Mg^2+, Mn^2+, Co^2+"}]}, {"molecule": "B2", "values": [{"measurement": "Nuclease activity in induced recombinant bacteria", "setting": "calf thymus dsDNA [2]", "value": "nuclease activity detected"}, {"measurement": "Nuclease activity in non-induced recombinant bacteria", "setting": "calf thymus dsDNA [2]", "value": "weak nuclease activity"}]}]}
